From patent publication US5633231A, “Valine-containing pseudopeptides with antiviral activity” (Bayer Aktiengesellschaft, priority 1993, dated 1997) come the findings set out here.

Where two headings read alike, the source gives them in different places.

One experiment addresses HIV protease (HIV-1) (Human immunodeficiency virus type 1 group M subtype B, UniProt P04585). Put plainly: HIV-specific protease enzyme test, cleavage of synthetic gag peptide analysed by RP-HPLC. The following applies: read-out: IC50 (RP-HPLC) (μM) HIV-1, purified HIV protease, synthetic peptide substrate. How it is done: This is verified using a HIV-specific protease enzyme test.
The results for the examples listed below were obtained using the HIV test system described in the following literature reference [cf. Hansen, J., Billich, S., Schulze, T., Sukrow, S. and M olling, K. (1988), EMBO Journal, Vol. 7, No. 6, pp. 1785-1791]: purified HIV protease was incubated together with synthetic peptide which imitates a cleavage site in the gag precursor protein and represents an in-vivo cleavage site for protease. The resulting cleavage products from the synthetic peptide were analysed by reverse phase high performance liquid chromatography (RP-HPLC). The IC50 values which are given refer to the substance concentration which elicits 50% inhibition of the protease activity under the above-listed test conditions.

The next experiment deals with HCMV (Davis). Put plainly: Anti-HCMV (Davis) activity: inhibition of the cytopathogenic effect in HELF cell cultures, 96-well screening test. Format: cell-based, human cytomegalovirus. To be noted: read-out: IC50 (μM) (HCMV) = concentration which elicits 50% inhibition of the CPE; HCMV (Davis)-infected HELF cells, 6 days, neutral red staining. In general terms: Protection from cytopathic effect is a common read-out in antiviral testing.

Turning to `Cc1ccc(S(=O)(=O)N=C(N)NCCC[C@H](NC(=O)c2cnccn2)C(=O)N[C@H](C(=O)NC(C=O)Cc2ccccc2)C(C)C)cc1` (some centres unmarked), the IC50 at HIV protease (HIV-1) (tested form: 2HCl) was found to be 1.1 µM. Regarding `Cc1ccc(S(=O)(=O)N=C(N)NCCC[C@H](NC(=O)c2cnccn2)C(=O)N[C@H](C(=O)N[C@H](CO)Cc2ccccc2)C(C)C)cc1`, on HIV protease (HIV-1), the IC50 was found to be 18 µM. For the compound `Cc1ccc(S(=O)(=O)N=C(N)NCCC[C@H](NC(=O)Cc2ccc(-n3ccnn3)cc2)C(=O)N[C@H](C(=O)NC(C=O)Cc2ccccc2)C(C)C)cc1` (some centres unmarked), on HIV protease (HIV-1), the IC50 was 0.19 µM. For the compound `Cc1ccc(S(=O)(=O)N=C(N)NCCC[C@H](NC(=O)COc2ccc(F)cc2F)C(=O)N[C@H](C(=O)NC(C=O)Cc2ccccc2)C(C)C)cc1` (some centres unmarked), the IC50 in the experiment on HCMV (Davis) was found to be 0.041 µM; on HIV protease (HIV-1) it was 0.22 µM. As to `Cc1ccc(S(=O)(=O)N=C(N)NCCC[C@H](NC(=O)OCc2c(Cl)cccc2Cl)C(=O)N[C@H](C(=O)NC(C=O)Cc2ccccc2)C(C)C)cc1` (some centres unmarked), the IC50 is 0.0011 µM in the experiment with HCMV (Davis) and 7.3 µM on HIV protease (HIV-1). Turning to `Cc1ccc(S(=O)(=O)N=C(N)NCCC[C@H](NS(=O)(=O)c2ccc(C)cc2)C(=O)N[C@H](C(=O)NC(C=O)Cc2ccccc2)C(C)C)cc1` (some centres unmarked), the IC50 at HIV protease (HIV-1) was found to be 30 µM.
